Pooled drug test results. Numbers come from NIAID ChemDB, via PubChem.

Shared fields: tests in culture; species: Mycobacterium tuberculosis

Percent inhibition refers to the dose given; in toxicity tests it is the harm to the cells. ECn: concentration that inhibits the pathogen or its effect by n%. An empty or dashed field is not shown. MIC bound: limit read from a one-dose screen. Neighbouring rows are from separate reports.

smiles	method	cell line	read-out	strain	tested at	value
CC1COc2c(N3CCN(C)CC3)c(F)cc3c(=O)c(C(=O)O)cn1c23			MIC	ATCC 35823		0.5 µg/mL
COC1OC(CO)C(O)C2NCSC12.Cl	BACTEC		inhibition	H37Rv	12.5 µg/mL	0%
CC(C)c1ccc2c(c1)CC[C@H]1[C@](C)(CNCCNCc3ccc(F)cc3)CCC[C@]21C			MIC			50 µM
O=C1NC(=O)C2(N1)c1cc([N+](=O)[O-])ccc1-c1ccc([N+](=O)[O-])cc12	resazurin		MIC bound	H37Rv		>6.25 µg/mL
CO[C@H]1/C=C/O[C@@]2(C)Oc3c(C)c(O)c4c(=O)c(c5oc6cc(N7CCN(CC(C)C)CC7)cc(=O)c6nc5c4c3=C2O)NC(=O)/C(C)=C\C=C\[C@H](C)[C@H](O)[C@@H](C)[C@@H](O)[C@@H](C)[C@H](OC(C)=O)[C@@H]1C			MBC	27 (rifampin-resistant)		0.1 µg/mL
NC(=O)c1cnccn1			MIC	Isolate 10350 monodrug-resistant		>300 µg/mL
Cc1cc(-c2ccccc2Cl)c(C(=O)O)[nH]1			MIC	H37Rv		>100 µg/mL
N#Cc1ccc(C(=O)NN)cc1			MIC			<40 µg/mL
CC(C)=CCC/C(C)=C/CNCCNCCC(c1ccccc1)c1ccccc1			MIC			50 µM
CCCCC(CC)CN1CN(CC(CC)CCCC)CC(C)(NCCNCC(O)c2ccccc2)C1			MIC			12.5 µM
O=C1N(c2nncs2)CCN1[N+](=O)[O-]			MIC	ETA-R		6.3 µg/mL
CCOC(=O)Nc1cc(NC(c2ccccc2)c2ccccc2)c([N+](=O)[O-])c(NC/C(C)=N/NC(=O)O)n1			inhibition	H37Rv	12.5 µg/mL	0%
[N-]=[N+]=CC(=O)OC[C@@H]1NC(=O)[C@@H](COC(=O)C=[N+]=[N-])NC1=O	BACTEC		inhibition	H37Rv	12.5 µg/mL	21%
Nc1ccc(O)c2c1C(=O)c1c(O)ccc(N)c1C2=O			MIC	H37Rv		>100 µg/mL
CC(C)=CCC/C(C)=C/CNCCNCCc1cccs1			MIC			50 µM
C[C@H]1COc2c(N3CCN(C)CC3)c(F)cc3c(=O)c(C(=O)O)cn1c23			MBC	ATCC 35822		1 µg/mL
CC(C)(C)CC(C)(C)NCCNc1cccc2ncccc12			MIC			3.13 µM
CC(C)C1=C(O)C2=C(C(=O)C1=O)[C@@]1(C)CCCC(C)(C)C1C[C@H]2O	BACTEC		inhibition	H37Rv	12.5 µg/mL	47%
CC1=CC(=C(c2ccc(N)cc2)c2ccc(N)cc2)C=CC1=N			MIC	H37Rv		>100 µg/mL
CCOC(=O)Nc1cc2[nH]c(=S)n3c(=S)[nH]c(n1)c23			EC50	H37Rv		>12.5 µg/mL
CC1=C[C@@]23[C@H](C=C(C(=O)O)[C@@H]2COC(=O)[C@]32CO2)[C@H]1C	BACTEC		MIC bound	H37Rv		>12.5 µg/mL
CCCCCCCCCCCCCCCCOCCCCCCCCCCCCCCCC			MIC	H37Rv		100 µg/mL
O=C1CC(c2ccc(Br)cc2)Oc2ccccc21			EC50			>12.5 µg/mL
O=C(N/N=C/c1ccc(O)cc1)c1ccccc1Cl			MIC			100 µg/mL
CC[C@H]1OC(=O)[C@H](C)[C@@H](O[C@H]2C[C@@](C)(OC)[C@@H](O)[C@H](C)O2)[C@H](C)[C@@H](O[C@@H]2O[C@H](C)C[C@H](N(C)C)[C@H]2O)[C@](C)(O)C[C@@H](C)C(=O)[C@H](C)[C@@H](O)[C@]1(C)O			MIC	ATCC 35820		>8 µg/mL
O=C1c2ccccc2-c2c(Br)c3ccccc3c(=O)n21	resazurin		MIC bound	H37Rv		>6.25 µg/mL
COc1ccccc1C(=O)O			MIC	H37Rv		>100 µg/mL
CC(NCCNCC1(O)CCCCC1)c1cccc2ccccc12			MIC			50 µM
CN(C)CCC(=O)c1ccccc1			MIC	H37Rv		25 µg/mL
CCOc1ccccc1CNCCN[C@@H]1C[C@@H]2C[C@H]([C@H]1C)C2(C)C			MIC			50 µM
C1=C(CCNCCNCC(c2ccccc2)c2ccccc2)CCCC1			MIC			25 µM
O=C(NN=C1CCCCC1)c1ccccc1Cl			MIC			10 µg/mL
N#Cc1ccc(-n2c(=O)oc3ccc(F)cc3c2=O)cc1			MIC	CNCTC MY331/88		8 µM
Br.Nc1nnc(N)n1N			MIC	H37Rv		>100 µg/mL
NC(=O)c1nnn2c1nc(N)c1ccccc12	BACTEC		MIC bound	H37Rv		>12.5 µg/mL
C[C@H](NCCNCc1ccc(C(F)(F)F)cc1)[C@H](O)c1ccc(O)c(O)c1			MIC			25 µM
COc1cc(OC)c(-c2nc3ccc(C)cc3c(=O)o2)cc1OC	BACTEC		MIC bound	H37Rv		>12.5 µg/mL
Cc1ccc(Nc2cc(Oc3ccc(C)c(S(=O)(=O)[O-])c3)c3c4c(cc(=O)n3C)-c3ccccc3C(=O)c24)c(S(=O)(=O)[O-])c1.[Na+].[Na+]			MIC	H37Rv		>100 µg/mL
Nc1ccc2nc3ccc(N)cc3[n+](-c3ccccc3)c2c1	BACTEC	VERO	MIC	H37Rv		3.13 µg/mL
Fc1ccccc1CNCCNC(c1ccccc1)c1ccccc1			MIC			50 µM
CCOC(=O)Nc1cc(NC/C(=N\O)c2ccc(Cl)cc2)c([N+](=O)[O-])c(N)n1			EC50	H37Rv		>12.5 µg/mL
COc1ccc2c(c1OC)C(=O)OC2c1cc(C)cc(C)c1O			MIC	H37Rv		>100 µg/mL
CC(C)c1ccc2c(c1)CC[C@H]1[C@](C)(CNCCNCCc3ccccc3F)CCC[C@]21C			MIC			50 µM
Cc1nn(C(=O)c2ccncc2)c(C)c1N=Nc1ccc(Br)cc1	BACTEC		MIC bound	H37Rv		>12.5 µg/mL
CO[C@H]1/C=C/O[C@@]2(C)Oc3c(C)c(O)c4c(O)c(c(/C=N/N5CCN(C6CCCC6)CC5)c(O)c4c3C2=O)NC(=O)/C(C)=C\C=C\[C@H](C)[C@H](O)[C@@H](C)[C@@H](O)[C@@H](C)[C@H](OC(C)=O)[C@@H]1C			MIC	Isolate 900201 drug-susceptible		0.25 µg/mL
Cc1noc(NS(=O)(=O)c2ccc(Nc3nc(CC(=O)Nc4ccccc4)cs3)cc2)c1C	BACTEC		inhibition	H37Rv	12.5 µg/mL	10%
CCOC(=O)Nc1cc(N)c(N)c(N)c1			EC50	H37Rv		>12.5 µg/mL
CC(C)c1ccc2c(c1)CC[C@H]1[C@](C)(CNCCN[C@H](CO)Cc3ccccc3)CCC[C@]21C			MIC			25 µM
COc1ccc(NC(=O)CC(=O)N2N=C(N3c4ccccc4Sc4ccccc43)CC2c2ccccc2)cc1	BACTEC		MIC bound	H37Rv		>12.5 µg/mL
Nc1ccc(S(=O)(=O)NC(=O)c2ccc([N+](=O)[O-])cc2)cc1			MIC	H37Rv		>100 µg/mL
CC(C)(C)CC(C)(C)NCCNCC12CC3CC(CC(C3)C1)C2			MIC			4.7 µM
O=C(/C=C/c1ccccc1)c1cccc(I)c1O			EC50			>12.5 µg/mL
COC(=O)CNC(=O)Cc1ccccc1			MIC	H37Rv		>100 µg/mL
COc1ccc2c(=O)n(-c3ccc(C)cc3)c(=O)oc2c1			MIC	CNCTC MY331/88		32 µM
COc1ccc(O)c(C(=O)/C=C/c2ccco2)c1			EC50	H37Rv		>12.5 µg/mL
OC(c1cc(-c2ccc(Cl)cc2)nc2c(Cl)cccc12)C1CCCCN1		VERO	MIC	H37Rv		0.78 µg/mL
CCOC(=O)Nc1cc2oc(-c3ccc(Cl)cc3)nc2c(N(CCc2ccccc2)Cc2ccccc2)n1			EC50	H37Rv		>12.5 µg/mL
Cc1c(N)nc(N)nc1C(=O)O	BACTEC		MIC bound	H37Rv		>12.5 µg/mL
COc1ccc(/C=C/C(=O)c2cccc(F)c2O)cc1			inhibition		12.5 µg/mL	45%
CCCCCCC(C(=O)OCC)C(=O)OCC			MIC	H37Rv		>100 µg/mL
CCOc1ccc(C(=O)N/N=C/c2ccc(O)cc2)cc1			MIC			40 µg/mL
CCCCCCCC(=O)N1C2CC3CCC2(CS1(=O)=O)C3(C)C	BACTEC		inhibition	H37Rv	12.5 µg/mL	22%
CO[C@H]1/C=C/O[C@@]2(C)Oc3c(C)c(O)c4c(O)c(c(/C=N/N5CCN(C)CC5)c(O)c4c3C2=O)NC(=O)/C(C)=C\C=C\[C@H](C)[C@H](O)[C@@H](C)[C@@H](O)[C@@H](C)[C@H](OC(C)=O)[C@@H]1C			MIC	TN657		1 µg/mL
CC(=O)c1ccc[nH]1			MIC	H37Rv		>100 µg/mL
NCC[C@H](O)C(=O)N[C@@H]1C[C@H](N)[C@@H](O[C@H]2O[C@H](CN)[C@@H](O)[C@H](O)[C@H]2O)[C@H](O)[C@H]1O[C@H]1O[C@H](CO)[C@@H](O)[C@H](N)[C@H]1O	broth dilution / resazurin		MIC	MDR9		1 µg/mL
CCOc1ccnc(N)n1			MIC	H37Rv		100 µg/mL
O=C1C=CC2NC(c3cccs3)Nc3cccc1c32	BACTEC		inhibition	H37Rv	128 µg/mL	97%
CCOc1ccc(C(=O)NN=C(C)C)cc1			MIC			<40 µg/mL
CCCCCCCCCCCNCCNCCC(c1ccccc1)c1ccccc1			MIC			12.5 µM
O=Nn1c2ccccc2c2cc([N+](=O)[O-])ccc21			MIC	H37Rv		>100 µg/mL
CN[C@@H]1[C@H](O[C@H]2[C@H](O[C@H]3[C@H](O)[C@@H](O)[C@H](N=C(N)N)[C@@H](O)[C@@H]3N=C(N)N)O[C@@H](C)[C@]2(O)C=O)O[C@@H](CO)[C@H](O)[C@H]1O			MIC	ATCC 35827 (kanamycin-resistant)		8 µg/mL
O=c1cc(-c2ccncc2)[nH]c(=S)[nH]1			MIC	H37Rv		>100 µg/mL
O=C(O)C1NCCNC1C(=O)O	BACTEC		inhibition	H37Rv	12.5 µg/mL	-4%
CC[C@H]1OC(=O)[C@H](C)[C@@H](O[C@H]2C[C@@](C)(OC)[C@@H](O)[C@H](C)O2)[C@H](C)[C@@H](O[C@@H]2O[C@H](C)C[C@H](N(C)C)[C@H]2O)[C@](C)(OC)C[C@@H](C)C(=O)[C@H](C)[C@@H](O)[C@]1(C)O			MIC	H37Rv		>8 µg/mL
COc1ccc2oc3ccccc3c2c1C(=O)O			MIC	H37Rv		>100 µg/mL
O=C(NCCN1CCN2Cc3[nH]c4ccccc4c3CC2C1)c1ccc([N+](=O)[O-])cc1	resazurin		inhibition	H37Rv	6.25 µg/mL	61%
NC(N)=NS(=O)(=O)c1ccc(N)cc1			MIC	H37Rv		>100 µg/mL
O=c1oc2ccc([N+](=O)[O-])cc2c(=O)n1-c1cccc(F)c1			MIC	CNCTC MY331/88		31 µM
C=CC1CN2CCC1CC2C(=O)c1ccnc2ccc(OC)cc12	BACTEC		MIC	H37Rv		≥128 µg/mL
c1ccc(CNCCNCCC(c2ccccc2)c2ccccc2)cc1			MIC			50 µM
CCOC(=O)Nc1cc2[nH]c(-c3ccc(C)cc3)nc2c(N(CC)CC)n1			EC50	H37Rv		<12.5 µg/mL
O=c1oc2ccc(Cl)cc2c(=O)n1-c1ccc([N+](=O)[O-])cc1			MIC	CNCTC MY331/88		8 µM
COc1ccc(NC(=O)c2cc([N+](=O)[O-])ccc2Oc2ccccc2)cc1NC(=O)CC(=O)c1ccccc1OC			MIC	H37Rv		>100 µg/mL
O=C1c2ccccc2OC(c2cccc(Br)c2)C1O			inhibition	H37Rv	12.5 µg/mL	60%
CO[C@H]1/C=C/O[C@@]2(C)Oc3c(C)c(O)c4c(=O)c(c5oc6cc(N7CCN(C(C)C)CC7)cc(=O)c6nc5c4c3=C2O)NC(=O)/C(C)=C\C=C\[C@H](C)[C@H](O)[C@@H](C)[C@@H](O)[C@@H](C)[C@H](OC(C)=O)[C@@H]1C			MIC	9 (rifampin-resistant)		0.05 µg/mL
Cl.NC(N)=NC(N)=Nc1ccc(Cl)cc1			MIC	H37Rv		>100 µg/mL
O=C1CC(c2ccc(O)cc2)Oc2ccccc21			inhibition	H37Rv	12.5 µg/mL	18%

11 of the rows above, restated:

{"smiles": "CC(C)c1ccc2c(c1)CC[C@H]1[C@](C)(CNCCN[C@H](CO)Cc3ccccc3)CCC[C@]21C", "read-out": "MIC", "value": "25 µM"}
{"smiles": "CC(C)c1ccc2c(c1)CC[C@H]1[C@](C)(CNCCNCCc3ccccc3F)CCC[C@]21C", "read-out": "MIC", "value": "50 µM"}
{"smiles": "CCOc1ccccc1CNCCN[C@@H]1C[C@@H]2C[C@H]([C@H]1C)C2(C)C", "read-out": "MIC", "value": "50 µM"}
{"smiles": "CCCCCCCC(=O)N1C2CC3CCC2(CS1(=O)=O)C3(C)C", "method": "BACTEC", "read-out": "inhibition", "strain": "H37Rv", "tested at": "12.5 µg/mL", "value": "22%"}
{"smiles": "Cc1cc(-c2ccccc2Cl)c(C(=O)O)[nH]1", "read-out": "MIC", "strain": "H37Rv", "value": ">100 µg/mL"}
{"smiles": "Cc1nn(C(=O)c2ccncc2)c(C)c1N=Nc1ccc(Br)cc1", "method": "BACTEC", "read-out": "MIC bound", "strain": "H37Rv", "value": ">12.5 µg/mL"}
{"smiles": "CCCCCCC(C(=O)OCC)C(=O)OCC", "read-out": "MIC", "strain": "H37Rv", "value": ">100 µg/mL"}
{"smiles": "COc1ccc(NC(=O)CC(=O)N2N=C(N3c4ccccc4Sc4ccccc43)CC2c2ccccc2)cc1", "method": "BACTEC", "read-out": "MIC bound", "strain": "H37Rv", "value": ">12.5 µg/mL"}
{"smiles": "Nc1ccc(O)c2c1C(=O)c1c(O)ccc(N)c1C2=O", "read-out": "MIC", "strain": "H37Rv", "value": ">100 µg/mL"}
{"smiles": "CC(C)C1=C(O)C2=C(C(=O)C1=O)[C@@]1(C)CCCC(C)(C)C1C[C@H]2O", "method": "BACTEC", "read-out": "inhibition", "strain": "H37Rv", "tested at": "12.5 µg/mL", "value": "47%"}
{"smiles": "CC(C)=CCC/C(C)=C/CNCCNCCc1cccs1", "read-out": "MIC", "value": "50 µM"}